Values quoted from earlier work, collected in article PMC5557986 (Scientific Reports, 2017).

System: NA with His275Tyr substitution
Details: cited from earlier work

Row | Molecule | resistance conferred by His275Tyr substitution
1 | peramivir | moderate resistance
2 | CCOC(=O)C1=C[C@@H](OC(CC)CC)[C@H](NC(C)=O)[C@@H](N)C1 [oseltamivir] | high level of resistance
